Results of unrelated studies side by side (data: NIAID ChemDB).

Common to all: tests in culture; organism: Hepatitis C virus

Fold resistance has wild type as its base. ECn: concentration that inhibits the pathogen or its effect by n%. Percent inhibition refers to the dose given; in toxicity tests it is the harm to the cells. Blank or dashed fields: not listed here. a–b is a range or a potency band. Lines come from different laboratories, so protocols vary.

| smiles | read by | strain | read-out | dose | cell line | changes | result |
|---|---|---|---|---|---|---|---|
| CC1(C)CC(=O)C2=C(C1)Nc1c(O)cccc1N(C(=O)OCc1ccccc1)C2c1ccc(OCc2ccccc2)cc1Cl | luciferase / reporter gene / replicon | 1b | EC50 | - | - | - | 1.47 µM |
| O=C(Nc1cccc(-c2ccco2)c1)C1CCN(C(=O)c2n[nH]c3c2CCC3)CC1 | PCR | JFH-1 | inhibition | 15 µM | Huh7 | - | <40% |
| CCCn1cc(CNC(=O)[C@]23CCC(C)(C)CC2C2=CCC4[C@@]5(C)CC[C@H](O)C(C)(C)C5CC[C@@]4(C)[C@]2(C)C[C@H]3O)nn1 | luciferase / entry | - | inhibition | 1 µM | Huh7 | - | 2.2% |
| CC1(C)CC(=O)C2=C(C1)Nc1c(O)cccc1N(C(=O)CCC(=O)NCc1ccoc1)C2c1ccc(OCc2ccccc2)cc1Cl | luciferase / reporter gene / replicon | 1b | EC50 | - | - | - | 22.01 µM |
| CC1(C)CC[C@@]2(C(=O)NCc3cn(Cc4ccccc4)nn3)C(C1)C1=CCC3[C@@]4(C)CC[C@H](O)C(C)(C)C4CC[C@@]3(C)[C@]1(C)C[C@H]2O | luciferase / entry | - | inhibition | 1 µM | Huh7 | - | 2.2% |
| CC1CCC(C(=O)N(c2cc(C#CC(C)(C)C)sc2C(=O)O)C2CCC(O)CC2)CC1 | luciferase | H77 (GT1a) | fold resistance | - | Huh7 | L419S | 134.6 |
| CC1(C)CC(=O)C2=C(C1)Nc1c(O)cccc1N(C(=O)CCC(=O)N1CCCC1)C2c1ccc(OCc2ccccc2)cc1Cl | luciferase / reporter gene / replicon | 1b | EC50 | - | - | - | 9.61 µM |
| COc1c(-c2ccc3cc(NS(C)(=O)=O)ccc3c2)cc(-n2ccc(=O)[nH]c2=O)cc1C(C)(C)C | luciferase | genotype 1b | EC50 | - | Huh7 | P495S | 0.0019 µM |
| O=C(N[C@@H](C(=O)N1CCC[C@H]1c1ncc(-c2ccc(-c3ccc(-c4cnc([C@@H]5CCCN5C(=O)[C@H](NC(=O)C5CC5)c5ccccc5)s4)cc3)cc2)s1)c1ccccc1)C1CC1 | luciferase / reporter gene | genotype 2a | fold resistance | - | Huh7.5 | Y93H | 3041 |
| CC1(C)CC[C@@]2(C(=O)NCc3cn(CCCn4cc(CNC(=O)[C@]56CCC(C)(C)CC5C5=CCC7[C@@]8(C)CC[C@H](O)C(C)(C)C8CC[C@@]7(C)[C@]5(C)C[C@H]6O)nn4)nn3)C(C1)C1=CCC3[C@@]4(C)CC[C@H](O)C(C)(C)C4CC[C@@]3(C)[C@]1(C)C[C@H]2O | luciferase / entry | - | inhibition | 5 µM | Huh7 | - | 89% |
| CCCCc1ncc(-c2ccc(CN3CCC(C(=O)Nc4cccc(-c5cccc(F)c5)c4)CC3)cc2)[nH]1 | PCR | JFH-1 | inhibition | 5 µM | Huh7 | - | ≥40% |
| CCn1c2ccccc2c2cc(NC(N)=S)ccc21 | reporter gene / fluorescence | - | EC50 | - | Ava5-EG(delta4AB)SEAP | - | 0.001–1 µM |
| CC1(C)CC[C@@]2(C(=O)NCCCCCCCCCCCCNC(=O)[C@]34CCC(C)(C)CC3C3=CCC5[C@@]6(C)CC[C@H](O)C(C)(C)C6CC[C@@]5(C)[C@]3(C)C[C@H]4O)C(C1)C1=CCC3[C@@]4(C)CC[C@H](O)C(C)(C)C4CC[C@@]3(C)[C@]1(C)C[C@H]2O | luciferase / entry | - | inhibition | 5 µM | Huh7 | - | 65.1% |
| O=C(Nc1ccc(-c2nc3ccccc3[nH]2)cc1)C1CCN(CC2CC=CCC2)CC1 | PCR | JFH-1 | inhibition | 15 µM | Huh7 | - | ≥40% |
| NC(=S)Nc1cccc(OCCCCCOc2ccccc2)c1 | reporter gene / fluorescence | - | EC50 | - | Ava5-EG(delta4AB)SEAP | - | 0.001–1 µM |
| CNC(=O)CCC(=O)N1c2cccc(O)c2NC2=C(C(=O)CC(C)(C)C2)C1c1ccc(OCc2ccccc2)cc1Cl | luciferase / reporter gene / replicon | 1b | EC50 | - | - | - | 7.41 µM |
| Cc1ccc2ccccc2c1OCCCCCOc1cccc(NC(N)=S)c1 | reporter gene / fluorescence | - | EC50 | - | Ava5-EG(delta4AB)SEAP | - | 0.001–1 µM |
| COC(=O)N[C@H](C(=O)N1CCC[C@H]1c1ncc(-c2ccc(-c3ccc(-c4cnc([C@@H]5CCCN5C(=O)[C@@H](NC(=O)OC)C(C)C)[nH]4)cc3)cc2)[nH]1)C(C)C | luciferase | 1a | EC50 | - | Lunet | L31V | 0.018 µM |
| CCN(CC)c1ccc2c(c1)Cc1cc(NC(N)=S)ccc1-2 | reporter gene / fluorescence | - | EC50 | - | Ava5-EG(delta4AB)SEAP | - | 0.001–1 µM |
| O=C(Nc1ccc(-c2nc3ccccc3[nH]2)cc1)C1CCN(Cc2cc3ccccc3[nH]2)CC1 | PCR | JFH-1 | inhibition | 15 µM | Huh7 | - | <40% |
| NC(=S)Nc1cccc(OCCCCCc2ccccc2)c1 | reporter gene / fluorescence | - | EC50 | - | Ava5-EG(delta4AB)SEAP | - | 0.001–1 µM |
| CC1(C)CC[C@@]2(C(=O)NCCOCCNC(=O)[C@]34CCC(C)(C)CC3C3=CCC5[C@@]6(C)CC[C@H](O)C(C)(C)C6CC[C@@]5(C)[C@]3(C)C[C@H]4O)C(C1)C1=CCC3[C@@]4(C)CC[C@H](O)C(C)(C)C4CC[C@@]3(C)[C@]1(C)C[C@H]2O | luciferase / entry | - | inhibition | 5 µM | Huh7 | - | 83.6% |
| CCCNc1ccc2c(c1)Cc1cc(NC(N)=S)ccc1-2 | reporter gene / fluorescence | - | EC50 | - | Ava5-EG(delta4AB)SEAP | - | 0.001–1 µM |
| COc1cccc(-c2ccccc2NC(=O)C2CCN(Cc3cccc4cccnc34)CC2)c1 | PCR | JFH-1 | inhibition | 5 µM | Huh7 | - | ≥70% |
| NC(=S)Nc1cccc(OCCCCCOc2ccc(F)cc2F)c1 | reporter gene / fluorescence | - | EC50 | - | Ava5-EG(delta4AB)SEAP | - | 0.001–1 µM |
| CC1(C)CC(=O)C2=C(C1)Nc1c(O)cccc1N(C(=O)C1CCC1)[C@H]2c1ccc(OCc2ccccc2)cc1F | luciferase / reporter gene / replicon | 1b | EC50 | - | - | - | 0.39 µM |
| CC1(C)CC[C@@]2(C(=O)NCc3cn(CC(Cn4cc(CNC(=O)[C@]56CCC(C)(C)CC5C5=CCC7[C@@]8(C)CC[C@H](O)C(C)(C)C8CC[C@@]7(C)[C@]5(C)C[C@H]6O)nn4)(Cn4cc(CNC(=O)[C@]56CCC(C)(C)CC5C5=CCC7[C@@]8(C)CC[C@H](O)C(C)(C)C8CC[C@@]7(C)[C@]5(C)C[C@H]6O)nn4)Cn4cc[n+](CNC(=O)[C@]56CCC(C)(C)CC5C5=CCC7[C@@]8(C)CC[C@H](O)C(C)(C)C8CC[C@@]7(C)[C@]5(C)C[C@H]6O)n4)nn3)C(C1)C1=CCC3[C@@]4(C)CC[C@H](O)C(C)(C)C4CC[C@@]3(C)[C@]1(C)C[C@H]2O | luciferase / entry | - | inhibition | 1 µM | Huh7 | - | 22.8% |

Repeating the final 2 entries:

smiles,read by,strain,read-out,dose,cell line,changes,result
CC1(C)CC(=O)C2=C(C1)Nc1c(O)cccc1N(C(=O)C1CCC1)[C@H]2c1ccc(OCc2ccccc2)cc1F,luciferase / reporter gene / replicon,1b,EC50,-,-,-,0.39 µM
CC1(C)CC[C@@]2(C(=O)NCc3cn(CC(Cn4cc(CNC(=O)[C@]56CCC(C)(C)CC5C5=CCC7[C@@]8(C)CC[C@H](O)C(C)(C)C8CC[C@@]7(C)[C@]5(C)C[C@H]6O)nn4)(Cn4cc(CNC(=O)[C@]56CCC(C)(C)CC5C5=CCC7[C@@]8(C)CC[C@H](O)C(C)(C)C8CC[C@@]7(C)[C@]5(C)C[C@H]6O)nn4)Cn4cc[n+](CNC(=O)[C@]56CCC(C)(C)CC5C5=CCC7[C@@]8(C)CC[C@H](O)C(C)(C)C8CC[C@@]7(C)[C@]5(C)C[C@H]6O)n4)nn3)C(C1)C1=CCC3[C@@]4(C)CC[C@H](O)C(C)(C)C4CC[C@@]3(C)[C@]1(C)C[C@H]2O,luciferase / entry,-,inhibition,1 µM,Huh7,-,22.8%